PubChem BioAssay AID504761 | Drosophila RNAi Screening Center | 2011
Purpose: 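Insect host genes that dengue virus relies on to spread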 (primary screen). Cell system: D.Mel-2 cells from Drosophila. Reagents: long dsRNA against Drosophila genes. Treatment: infection with dengue virus type 2; dose and infection time not stated. Measurement: 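Per well on two replicate plates, imaging gave the percent of cells positive for viral envelope protein, ranked by infection, and a nuclear count of cells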. Scale: infection score: higher = more virus-infected cells; cell count: higher = more cells in the well. Rule for the call: 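Low infection ranks in the two replicates (chance level up to 0.065) followed by a retest with a 1.5-fold or larger significant decrease, p below 0.05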. Meaning of the calls: active = confirmed: knock-down lowers infection; inactive = not picked or not confirmed.
The deposit covers about 22,000 reagents; this is a random part of those that have a named target and a result. Of all reagents, 116 (0.52%) got an active call. 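Calls depend on retest data that are not deposited; infection was ranked per plate without normalising between plates; the unit of the infection score is not given.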 Raw values vary from plate to plate and are shown uncorrected. Unmarked entries are inactive. Names joined by + are all predicted targets of the reagent. Not stated in the record: the amount of reagent, the time to read-out.

| predicted target | DRSC id | infection score, replicate 1 | infection score, replicate 2 | cell count, replicate 1 | cell count, replicate 2 |
| --- | --- | --- | --- | --- | --- |
| Yif1 (Yip1-interacting factor 1) | DRSC15817 | – | – | 293 | 294 |
| CG13838 | DRSC14688 | 5.25 | 10.7 | 1314 | 6798 |
| CG13838 | DRSC29055 | 4.42 | 9.67 | 1130 | 6238 |
| CG9270 | DRSC03182 | 15.7 | 15.8 | 5805 | 6180 |
| CG31210 (retired record) + CG4836 | DRSC22066 | 13.6 | 3.21 | 5832 | 6083 |
| Idgf4 (Imaginal disc growth factor 4) | DRSC18675 | 3.39 | 3.3 | 6410 | 6611 |
| Idgf4 (Imaginal disc growth factor 4) | DRSC24939 | 1.39 | 3.53 | 3461 | 6431 |
| gnu (giant nuclei) | DRSC10497 | 9.56 | 10.4 | 6341 | 6816 |
| IntS1 (Integrator 1) | DRSC04343 | 7.15 | 16.9 | 4616 | 4031 |
| IntS1 (Integrator 1) | DRSC27942 | 2.18 | 6.57 | 780 | 3546 |
| htk (hat-trick) | DRSC20029 | 4.16 | 4.4 | 4232 | 3640 |
| htk (hat-trick) | DRSC20031 | 11.5 | 1.09 | 6383 | 6819 |
| htk (hat-trick) | DRSC27508 | 7.62 | 10.6 | 6167 | 7035 |
| ProtB (Protamine B) | DRSC03373 | 2.05 | 0.92 | 6094 | 6205 |
| ProtB (Protamine B) | DRSC27427 | 7.19 | 6.98 | 6889 | 6764 |
| CG31286 | DRSC26727 | 3.07 | 4.02 | 6898 | 6291 |
| Ir52d (Ionotropic receptor 52d) | DRSC06264 | 6.98 | 6.95 | 6177 | 7048 |
| CG8563 | DRSC10996 | 3.71 | 3.3 | 6227 | 6399 |
| lncRNA:CR32657 (long non-coding RNA:CR32657) | DRSC19403 | 2.43 | 2.64 | 6792 | 6907 |
| lncRNA:CR32657 (long non-coding RNA:CR32657) | DRSC25753 | 2.06 | 2.62 | 6077 | 6189 |
| CG14538 (retired record) | DRSC02396 | 3.94 | 4.45 | 6147 | 6625 |
| CG14538 (retired record) | DRSC29424 | 32.4 | 4.25 | 5444 | 895 |
| eIF4E6 (eukaryotic translation initiation factor 4E6) | DRSC14853 | 5.43 | 1.31 | 2210 | 6509 |
| eIF4E6 (eukaryotic translation initiation factor 4E6) | DRSC25760 | 7.07 | 5.01 | 6503 | 6148 |
| Galphaq (G protein alpha subunit q) | DRSC07432 | 4.81 | 9.5 | 5825 | 6441 |
| Galphaq (G protein alpha subunit q) | DRSC25341 | 1.58 | 2.87 | 6404 | 5751 |
| CG7139 | DRSC11611 | – | 14.7 | 151 | 6287 |
| CG7139 | DRSC24579 | 8.99 | 8.03 | 6326 | 6776 |
| CG33489 | DRSC10588 | 3.59 | 5.37 | 5718 | 5995 |
| CG33489 | DRSC26653 | 2.05 | 10.1 | 6104 | 6062 |
| CG13585 | DRSC04221 | 5.38 | 1.72 | 6694 | 6262 |
| CG15578 | DRSC18066 | 8.65 | 8.52 | 6355 | 2841 |
| CG12506 | DRSC00347 | 3.74 | 2.71 | 6250 | 6384 |
| pan (pangolin) | DRSC17176 | 2.67 | 3.17 | 6356 | 6340 |
| pan (pangolin) | DRSC22582 | 16.7 | 4.89 | 6057 | 1146 |
| pan (pangolin) | DRSC29251 | 8.82 | 6.92 | 5374 | 5538 |
| CG9360 | DRSC20180 | 2.47 | 7.78 | 6308 | 6302 |
| Pxd (Peroxidase) | DRSC16805 | 5.96 | 2.3 | 6510 | 6595 |
| CG2113 | DRSC08554 | 0.53 | 1.01 | 6082 | 5938 |
| CG2113 | DRSC29350 | 26.7 | 12.8 | 5231 | 2752 |
| sstn (stepping stone) | DRSC10753 | 4.18 | 1.04 | 5527 | 6422 |
| sstn (stepping stone) | DRSC29335 | 9.67 | 6.5 | 5587 | 3248 |
| mRpL43 (mitochondrial ribosomal protein L43) | DRSC04508 | 4.05 | 3.31 | 6446 | 6866 |
| mRpL43 (mitochondrial ribosomal protein L43) | DRSC22571 | 11.7 | 17.5 | 5579 | 1827 |
| twr (twisted bristles roughened eye) | DRSC12491 | 8.14 | 11 | 1647 | 4763 |
| bma (black match) | DRSC09896 | 6.71 | 5.73 | 5979 | 6425 |
| bma (black match) | DRSC10164 | 1.36 | 2.93 | 6259 | 6786 |
| bma (black match) | DRSC28408 | 7.29 | 6.14 | 2730 | 3488 |
| Col4a1 (Collagen type IV alpha 1) | DRSC03291 | 3.44 | 5.97 | 5818 | 6253 |
| prd (paired) | DRSC03597 | 9.66 | 7.41 | 6348 | 5994 |
| CG17574 | DRSC06681 | 6.24 | 12.5 | 6761 | 5756 |
| CG3635 | DRSC03729 | 2.94 | 7.98 | 6555 | 6657 |
| Cap-H2 (Chromosome associated protein H2) | DRSC14908 | 17.5 | 14.2 | 6557 | 6425 |
| CG5973 | DRSC02918 | 8.57 | 15.4 | 6604 | 5903 |
| VhaPPA1-1 (Vacuolar H[+] ATPase PPA1 subunit 1) | DRSC16170 | 1.18 (active) | 1.86 | 6025 | 6080 |
| VhaPPA1-1 (Vacuolar H[+] ATPase PPA1 subunit 1) | DRSC24144 | 0.2 | 0.39 | 5579 | 5578 |
| CG4582 | DRSC15605 | 1.87 | 5.64 | 1122 | 2092 |
| CCT6 (Chaperonin containing TCP1 subunit 6) | DRSC20095 | 5.92 | 3.03 | 4832 | 4456 |

Ordered by “infection score, replicate 2” (low to high): 8 of the entries above.
| predicted target | DRSC id | infection score, replicate 1 | infection score, replicate 2 | cell count, replicate 1 | cell count, replicate 2 |
| --- | --- | --- | --- | --- | --- |
| sstn (stepping stone) | DRSC10753 | 4.18 | 1.04 | 5527 | 6422 |
| bma (black match) | DRSC10164 | 1.36 | 2.93 | 6259 | 6786 |
| mRpL43 (mitochondrial ribosomal protein L43) | DRSC04508 | 4.05 | 3.31 | 6446 | 6866 |
| bma (black match) | DRSC09896 | 6.71 | 5.73 | 5979 | 6425 |
| sstn (stepping stone) | DRSC29335 | 9.67 | 6.5 | 5587 | 3248 |
| twr (twisted bristles roughened eye) | DRSC12491 | 8.14 | 11 | 1647 | 4763 |
| CG2113 | DRSC29350 | 26.7 | 12.8 | 5231 | 2752 |
| mRpL43 (mitochondrial ribosomal protein L43) | DRSC22571 | 11.7 | 17.5 | 5579 | 1827 |
